Results of unrelated studies side by side (data: NIAID ChemDB).

Common to all: whole-cell or culture tests; organism: Herpes simplex virus 1; measure: EC50

Conditions beyond the fields shown may differ between rows. Blank or dashed fields: not listed here. ECn is the concentration giving n% inhibition of infection, replication or growth.

structure | strain | method | result
Cc1[nH]c2nc3c(ncn3COCCO[Si](C)(C)C(C)(C)C)c(=O)n2c1C(c1ccccc1)(c1ccccc1)c1ccccc1 | TK-deficient acyclovir-resistant | cytopathic effect | >10 µg/mL
CCCCCCc1cn([C@@H]2O[C@H](COP(=O)(O)O)[C@@H](O)[C@H]2O)c(=O)nc1N | KOS |  | >400 µg/mL
O=c1[nH]c(=O)n(COCCO)cc1I |  | plaque count | >100 µM
CC(C)c1cn([C@@H]2OC3COP(=O)(O)OC3[C@H]2O)c(=O)nc1N | KOS |  | >400 µg/mL
[N-]=[N+]=N[C@H]1C[C@H](CO)S[C@H]1n1ccc(=O)[nH]c1=O |  |  | >100 µg/mL
O=c1c2ncn(COCCO)c2[nH]c2nccn12 | F | cytopathic effect | 0.08 µg/mL
O=C(NCc1ccc(Cl)cc1)c1c[nH]c2ccc(C#CCO)cc2c1=O | Patton | plaque count | 18 µM
O=c1c2ncn(COCCO)c2[nH]c2ncc(CO)n12 | McIntyre | cytopathic effect | >3.2 µg/mL
O=C(NCc1ccc(Cl)cc1)c1c[nH]c2c(F)cccc2c1=O | PAAS (R841S (III)) |  | 4.6 µM
CCc1cn([C@@H]2O[C@H](COP(=O)(O)O)[C@@H](O)[C@H]2O)c(=O)nc1N | F |  | >400 µg/mL
O=C(c1ccncc1)n1c(-c2ccc(O)cc2)nc2ccccc21 | KOS |  | >4 µg/mL
COc1ccc(-c2[nH]c3nc4c(ncn4COCCO)c(=O)n3c2-c2ccc(C(c3ccccc3)c3ccccc3)cc2)cc1 | KOS | cytopathic effect | >16 µg/mL
O=C(c1ccncc1)n1c(-c2ccc(Cl)cc2)nc2ccccc21 | KOS |  | >20 µg/mL
Cc1cn([C@@H]2O[C@H](COP(=O)(O)O)[C@@H](O)[C@H]2O)c(=O)nc1N | McIntyre |  | >400 µg/mL
Nc1nc2c(ncn2COC(CO)CO)c(=O)[nH]1 | 98-350 | PCR | 0.2 µM
O=C(c1ccc([N+](=O)[O-])cc1)n1c(-c2ccc(Cl)cc2)nc2ccccc21 | KOS |  | >100 µg/mL
CC(=O)OCCOCn1cnc2c(=O)n3cc(-c4ccc5ccccc5c4)[nH]c3nc21 | TK-deficient acyclovir-resistant | cytopathic effect | >16 µg/mL
O=C(c1ccccc1Br)n1c(-c2ccc([N+](=O)[O-])cc2)nc2ccccc21 | KOS |  | >100 µg/mL
Cc1cn([C@@H]2S[C@@H](CO)C[C@@H]2N=[N+]=[N-])c(=O)[nH]c1=O |  |  | >100 µg/mL
O=C(NCc1ccc(Cl)cc1)c1c[nH]c2c(F)cc(CCCO)cc2c1=O | KOS |  | 7.8 µM
[N-]=[N+]=N[C@H]1C[C@H](CO)S[C@@H]1n1cnc2c(Cl)ncnc21 |  |  | >100 µg/mL
CCOCn1ccc(N)nc1=O |  | plaque count | >100 µM
CCCc1cn([C@@H]2O[C@H](COP(=O)(O)O)[C@@H](O)[C@H]2O)c(=O)nc1N | McIntyre |  | >400 µg/mL
O=c1[nH]c(=O)n(COCCO)cc1C(F)(F)F |  | plaque count | >100 µM
O=C(c1ccncc1)n1c(-c2cccc([N+](=O)[O-])c2)nc2ccccc21 | KOS |  | >100 µg/mL
[N-]=[N+]=N[C@@H]1C[C@@H](CO)S[C@H]1n1cnc2c(=O)[nH]cnc21 |  |  | >100 µg/mL
CC(=O)OCCOCn1cc(F)c(=O)[nH]c1=O |  | plaque count | >100 µM
Cc1cn([C@@H]2OC3COP(=O)(O)OC3[C@H]2O)c(=O)nc1N | KOS |  | >400 µg/mL

3 of the rows above, restated:

structure	strain	method	result
Cc1cn([C@@H]2O[C@H](COP(=O)(O)O)[C@@H](O)[C@H]2O)c(=O)nc1N	McIntyre		>400 µg/mL
CC(=O)OCCOCn1cnc2c(=O)n3cc(-c4ccc5ccccc5c4)[nH]c3nc21	TK-deficient acyclovir-resistant	cytopathic effect	>16 µg/mL
CC(=O)OCCOCn1cc(F)c(=O)[nH]c1=O		plaque count	>100 µM